# Potato spindle tuber viroid, loop 15: variant abundance in plants

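A pool of all variants was put on leaves of three Nicotiana benthamiana plants. Progeny were sequenced from the inoculated region (day 5), the margin of the inoculated leaf (day 10) and systemic leaves (day 12).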

The pool varies loop 15 of the PSTVd intermediate strain in the pattern GGAAACCGNNNNNNC; wild type is GGAAACCGCUACUAC (upper and lower strand joined, each 5' to 3', the first 7 letters being the upper strand, closing pairs included).

Numbers give reads per thousand; 0 = not seen among the reads, higher = more abundant. Each site shows the three plants. "Pool" is the share in the plasmid pool used as inoculum, on the same scale. The inoculated region was read from the minus strand, the other sites from the plus strand. With 43,870-66,106 reads a sample, very low values are single reads.

GGAAACCGAAUUCAC (pool 0.112): inoculated region 0.0819 / 0.0643 / 0.133; leaf margin 0 / 0 / 0.0401; systemic leaves 0 / 0 / 0.0228.
GGAAACCGAAGUUUC (pool 0.240): inoculated region 0.131 / 0.0643 / 0.0571; leaf margin 0.0162 / 0.0668 / 0.0200; systemic leaves 0 / 0 / 0.
GGAAACCGGCAGAGC (pool 0.208): inoculated region 0.0655 / 0.0643 / 0.0952; leaf margin 0.0162 / 0 / 0; systemic leaves 0 / 0 / 0.
GGAAACCGCGUUAUC (pool 0.208): inoculated region 0.180 / 0.193 / 0.114; leaf margin 0 / 0 / 0.0401; systemic leaves 0 / 0 / 0.
GGAAACCGUUCGGCC (pool 0.192): inoculated region 0.0819 / 0.129 / 0.133; leaf margin 0 / 0 / 0.0200; systemic leaves 0.0161 / 0 / 0.
GGAAACCGUAUACAC (pool 0.192): inoculated region 0.147 / 0.0643 / 0.0762; leaf margin 0 / 0 / 0; systemic leaves 0 / 0 / 0.
GGAAACCGGUGAGUC (pool 0.240): inoculated region 0.0819 / 0.0803 / 0.114; leaf margin 0 / 0 / 0.0200; systemic leaves 0 / 0 / 0.
GGAAACCGUUGUCAC (pool 0.256): inoculated region 0.311 / 0.305 / 0.476; leaf margin 0.0808 / 0.134 / 0.120; systemic leaves 0.0161 / 0 / 0.
GGAAACCGAAACUGC (pool 0.272): inoculated region 0.262 / 0.337 / 0.495; leaf margin 0.194 / 0.0668 / 0.120; systemic leaves 0.0322 / 0 / 0.
GGAAACCGACUCGGC (pool 0.272): inoculated region 0.0819 / 0.0964 / 0.0762; leaf margin 0.0162 / 0 / 0; systemic leaves 0 / 0 / 0.
GGAAACCGAUUGCCC (pool 0.224): inoculated region 0.0983 / 0.0643 / 0.0571; leaf margin 0.0485 / 0 / 0; systemic leaves 0 / 0 / 0.
GGAAACCGCGUCUGC (pool 0.336): inoculated region 0.164 / 0.0321 / 0.0952; leaf margin 0.0162 / 0 / 0; systemic leaves 0 / 0 / 0.0228.
GGAAACCGCUUGAGC (pool 0.240): inoculated region 0.0983 / 0.129 / 0.0571; leaf margin 0 / 0 / 0; systemic leaves 0.0161 / 0 / 0.
GGAAACCGCACAACC (pool 0.384): inoculated region 0.0819 / 0.112 / 0.0571; leaf margin 0.0323 / 0 / 0.0200; systemic leaves 0 / 0 / 0.
GGAAACCGCACGGCC (pool 0.240): inoculated region 0.115 / 0.112 / 0.0952; leaf margin 0 / 0.0445 / 0.0200; systemic leaves 0 / 0 / 0.
GGAAACCGGAUCCUC (pool 0.208): inoculated region 0.131 / 0.0643 / 0.133; leaf margin 0 / 0.0223 / 0; systemic leaves 0 / 0 / 0.
GGAAACCGGAUGAGC (pool 0.352): inoculated region 0.0491 / 0.0964 / 0.0571; leaf margin 0.0162 / 0.0223 / 0.0200; systemic leaves 0 / 0 / 0.
GGAAACCGUUAAACC (pool 0.208): inoculated region 0.180 / 0.0643 / 0.0762; leaf margin 0 / 0 / 0.0401; systemic leaves 0 / 0 / 0.
GGAAACCGUCCUCAC (pool 0.192): inoculated region 0.0328 / 0.0803 / 0.114; leaf margin 0 / 0 / 0.0401; systemic leaves 0 / 0 / 0.
GGAAACCGAAUAGAC (pool 0.320): inoculated region 0.0491 / 0.145 / 0.114; leaf margin 0 / 0.0223 / 0.0401; systemic leaves 0.0161 / 0 / 0.

A selection of 3 entries from above:

sequence	pool	inoculated region	leaf margin	systemic leaves
GGAAACCGAAUUCAC	0.112	0.0819 / 0.0643 / 0.133	0 / 0 / 0.0401	0 / 0 / 0.0228
GGAAACCGGAUGAGC	0.352	0.0491 / 0.0964 / 0.0571	0.0162 / 0.0223 / 0.0200	0 / 0 / 0
GGAAACCGGUGAGUC	0.240	0.0819 / 0.0803 / 0.114	0 / 0 / 0.0200	0 / 0 / 0

The authors trace changes outside the varied positions to PCR and sequencing errors or to mutation in the plant; presence does not show that a variant is infectious alone. Wild type was 33.9 per thousand in the pool and the most common sequence in every sample (inoculated region 202, 200, 159; leaf margin 724, 746, 710; systemic leaves 856, 883, 880).

Reference: Wu et al. 2024, doi:10.1371/journal.ppat.1012142.